From US8852647B2, “Combinations of pyrimethanil and silver compounds” (Janssen Pharmaceutica, NV, priority 2007, dated 2014)

Columns and labels:
Escherichia coli = assay: Poison Plate Assay (Experiment 1), Escherichia coli; details: Table 2, pyrimethanil with silver perchlorate; ppm total active ingredient; Tryptose Agar, 27° C., evaluation after one week
Rhodoturula rubra = assay: Poison Plate Assay (Experiment 1), Rhodoturula rubra; details: Table 2, pyrimethanil with silver perchlorate; ppm total active ingredient; Glucose Agar, 22° C., evaluation after two weeks
Aspergillus versicolor = assay: Poison Plate Assay (Experiment 1), Aspergillus versicolor; details: Table 2, pyrimethanil with silver perchlorate; ppm total active ingredient; Glucose Agar, 22° C., evaluation after two weeks

## silver perchlorate
Escherichia coli
  MIC-values (minimum inhibitory concentration): 66.67 ppm
Rhodoturula rubra
  MIC-values (minimum inhibitory concentration): 66.67 ppm
Aspergillus versicolor
  MIC-values (minimum inhibitory concentration): 88.99 ppm
